Data set [1] addresses T1, OneSTrEP-SsbB (Neisseria gonorrhoeae MS11) (UniProt Q5EP75).
T1 sequence (looked up): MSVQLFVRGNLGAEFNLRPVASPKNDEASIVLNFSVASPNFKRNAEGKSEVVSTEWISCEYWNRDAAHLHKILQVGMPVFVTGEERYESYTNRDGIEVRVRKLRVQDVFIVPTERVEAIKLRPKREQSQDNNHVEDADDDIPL
Description: EMSA. The following applies: no difference from native, EMSA: SBA buffer (10 mM NaOH, 2 mM EDTA, boric acid to pH 7.5), optional 10 mM MgCl2 and/or NaCl up to 500 mM, 4 C 15 min, recombinant protein, residues 1-143, protein details: N-terminal OneSTrEP, single-stranded DNA.

Data set [2] has as its target T2, His-SsbB (Neisseria gonorrhoeae MS11) (UniProt Q5EP75).
T2 sequence (looked up): T1 sequence (looked up)
Nature of the data set: EMSA. Particulars: lower affinity than native, EMSA: SBA buffer (10 mM NaOH, 2 mM EDTA, boric acid to pH 7.5), optional 10 mM MgCl2 and/or NaCl up to 500 mM, 4 C 15 min, recombinant protein, residues 1-143, protein details: N-terminal 10xHis, single-stranded DNA. (In EMSA bound probe runs differently from free probe, usually more slowly.)

For at least one entry, the source does not settle the construct or the ends of the probe. For some of these results: Weaker means in comparison with the reference protein, sequence or condition of that experiment. At least one verdict was read from the data and is not stated in words by the source. Where a protein sequence is shown, tags need not be part of it.

As to “TTTTTTTTTTTTTTTTTTTTTTTTTTTTTTTTTTTTTTTTTTTTTTTTTTTTTTTTTTTTTTTTTTTTTTTTTTT [32P-dT75]”, the figures for the binding result in data set [1] (label: 5' 32P) and in data set [2] (label: 5' 32P) were “binds” and “binds more weakly”, respectively.

In the case of “TTTTTTTTTTTTTTTTTTTTTTTTTTTTTTTTTTTTTTTTTTTTTTTTTTTTTTTTTTTTTTTTTTTTTTTTTTT [Cy3-dT75]”, the binding result is on record as “binds” in data set [1] (label: 5' Cy3) and “binds more weakly” in data set [2] (label: 5' Cy3).

The values above are taken from article PMC3334931, “Characterization of the Single Stranded DNA Binding Protein SsbB Encoded in the Gonoccocal Genetic Island” (PLoS ONE, 2012).
